Results of unrelated studies side by side (data: NIAID ChemDB).

Common to all: whole-cell or culture tests; agent: HIV-1; endpoint: EC50

Two numbers with a dash give a range or band.

SMILES	strain or isolate	read by	cell line	conditions	changes	value
Cc1ccc(-c2ccc(NC(=O)N3CCC4(CCO4)CC3)cc2)cc1	25710	luminescence	TZM-bl	pseudotyped	-	>30 µM
Cc1ccc(C)c(C(Cl)S(=O)(=O)c2cc(C)cc[n+]2[O-])c1	-	cytopathic effect	CEM	-	RT-K103N	3 µg/mL
CCCCCCCCCCCCCCC[C@@]1(O)C[N+](C)(C)C[C@@H](CC(=O)[O-])O1	RF	virus yield	-	-	-	~32 µg/mL
Cc1nnc(C(=O)NC(C)(C)c2nc(C(=O)NCc3ccc(F)cc3)c(O)c(=O)n2C)o1	NL4-3	luciferase / luminescence	TZM-bl	-	-	0.00756 µM
CCN1c2ncc(CCOc3ccc(C(=O)Nc4ccc(CC(=O)O)cc4)cc3C)cc2C(=O)N(C)c2cccnc21	-	p24	C8166	-	RT-K103N Y181C	0.01–0.05 µM
Cc1ccoc1C(=O)N1CCN(C(=O)C(=O)c2c[nH]c3cccc(F)c23)CC1	-	luciferase	HeLa + HELA CD4+/CCR5	-	-	<10 µM
Cc1ccc(C)n1-c1ccc(C(=O)O)c(O)c1	93BR020 X4R5 CLADE F	luciferase / cell fusion	PBMC/5.25M7	-	-	7.04 µM
COc1cc2ccnc(CN(CCCCN)Cc3ncccc3C)c2cc1OC	-	entry / luminescence	U87.CD4.CXCR4	-	-	0.013 µM
CCCOC(=O)C(C)(C)NP(=O)(CO[C@@H](C)Cn1cnc2c(N)ncnc21)C(C#N)C#N	-	RT activity / fluorescence	PBMC	-	-	>2.101 µM
CC(C)C1=C2[C@H]3CC[C@@H]4[C@@]5(C)CC[C@H](OC(=O)[C@H]6C[C@@H](C(=O)O)C6(C)C)C(C)(C)[C@@H]5CC[C@@]4(C)[C@]3(C)CC[C@@]2([C@@H](O)CNCC(C)(C)NC(=O)c2cc(C(C)C)[nH]n2)CC1=O	92HT599	p24 / ELISA	MT-2	-	-	<1 µM
COc1ccc2c(CN(CCCCN)Cc3ncccc3C)nccc2c1	-	entry / luminescence	U87.CD4.CXCR4	-	-	3.85 µM
CCN1c2ncc(CCOc3ccc(-c4ccc[n+]([O-])c4)cc3C)cc2C(=O)Nc2c(C)ccnc21	-	p24	C8166	-	RT-K103N Y181C	<0.01 µM
[2H]C(CN)(CNCC[C@@]12CC[C@]3(C)[C@H](CC[C@@H]4[C@@]5(C)CC[C@H](OC(=O)[C@H]6C[C@@H](C(=O)O)C6(C)C)C(C)(C)[C@@H]5CC[C@]43C)C1=C(C(C)C)C(=O)C2)NC(=O)c1ccc(Cl)cc1	92HT599	p24 / ELISA	MT-2	-	-	<1 µM
COc1cccc2c(C(=O)C(=O)N3CCN(C(=O)c4ccccn4)C[C@H]3C)c[nH]c12	-	luciferase	HeLa + HELA CD4+/CCR5	-	-	<10 µM
CCN1c2ncc(CCOc3ccc(-c4ccc(C(=O)O)cc4)cc3F)cc2C(=O)N(C)c2cccnc21	IIIB	p24	C8166	-	-	<0.01 µM
CN1c2ccccc2C2C1C=C(C#N)C(=O)N2c1ccc([N+](=O)[O-])cc1	B-HXB2	GFP / fluorescence	C8166-45	-	-	170 µM
CC(C)C1=C2[C@H]3CC[C@@H]4[C@@]5(C)CC[C@H](OC(=O)[C@H]6C[C@@H](C(=O)O)C6(C)C)C(C)(C)[C@@H]5CC[C@@]4(C)[C@]3(C)CC[C@@]2(CC(=O)NC(C)(C)CNC(=O)c2ccc3c(c2)OCO3)CC1=O	92HT599	p24 / ELISA	MT-2	-	-	<1 µM
CCCC(=O)N[C@H]1C[C@H](n2cc(C)c(=O)[nH]c2=O)O[C@@H]1CO	IIIB	ELISA / antigen	MT-4	-	-	>1000 µM
O=C(C(=O)N1CCN(C(=O)c2ccccc2)CC1)c1c[nH]c2cc(Cl)c(F)cc12	-	luciferase	HeLa + HELA CD4+/CCR5	-	-	<10 µM
CC(=O)N[C@H]1C[C@H](n2cc(C)c(=O)[nH]c2=O)O[C@@H]1CO	IIIB	ELISA / antigen	MT-4	-	-	>10 µM
Cc1cccnc1CN(CCCCN)Cc1ccccn1	-	flow cytometry	Jurkat cells	-	-	0.0062 µM
[2H]C([2H])(NCC[C@@]12CC[C@]3(C)[C@H](CC[C@@H]4[C@@]5(C)CC[C@H](OC(=O)[C@H]6C[C@@H](C(=O)O)C6(C)C)C(C)(C)[C@@H]5CC[C@]43C)C1=C(C(C)C)C(=O)C2)c1ccccc1	92HT599	p24 / ELISA	MT-2	-	-	<1 µM
CCN1c2ncc(CCOc3ccc(C(=O)N=c4ccn(O)cc4)cc3C)cc2C(=O)N(C)c2cccnc21	-	p24	C8166	-	RT-K103N Y181C	<0.01 µM
O=C(C(=O)N1CCN(C(=O)c2ccccn2)CC1)c1c[nH]c2c(F)ccc(F)c12	-	luciferase	HeLa + HELA CD4+/CCR5	-	-	<10 µM
Cc1cc(Nc2nc(N)c3cccc(-c4c(C)cc(/C=C/C#N)cc4C)c3n2)ncc1C#N	HXB2	cytopathic effect / luminescence	MT-4	-	K103N	0.0303 µM
COc1ccc(F)c2c(C(=O)C(=O)N3CCN(C(=O)c4cccc(N)c4)C[C@H]3C)c[nH]c12	-	luciferase	HeLa + HELA CD4+/CCR5	-	-	<10 µM
N#Cc1cc(Cl)cc(C(=O)c2cc(Cl)ccc2OCc2[nH]nc3ncccc23)c1	HXB2	cytopathic effect / MTT / absorbance	MT-4	10% FBS	-	0.0037 µM
CCN1c2ncc(CCOc3ccc(-n4nc(C(=O)O)cc4C)cc3C)cc2C(=O)N(C)c2cccnc21	IIIB	p24	C8166	-	-	>0.05 µM
COc1cc(Cl)ccc1C(=O)NC(C)(C)C(=O)NC[C@H](O)[C@@]12CC[C@]3(C)[C@H](CC[C@@H]4[C@@]5(C)CC[C@H](OC(=O)[C@H]6C[C@@H](C(=O)O)C6(C)C)C(C)(C)[C@@H]5CC[C@]43C)C1=C(C(C)C)C(=O)C2	92HT599	p24 / ELISA	MT-2	-	-	<1 µM
CC(=O)c1c(C)nc(-c2ccccc2)nc1NC(=O)c1ccccc1	CBL-20/H9	GFP / fluorescence	HeLa	-	-	>50 µM
O=S(=O)(Cc1c(Cl)c(Cl)c(Cl)c(Cl)c1Cl)c1cccc[n+]1[O-]	IIIB	cytopathic effect	CEM	-	-	0.63 µg/mL
CCN1c2ncc(CCOc3ccc(-c4ccc(C(=O)O)c(Cl)c4)cc3C)cc2C(=O)N(C)c2cccnc21	-	p24	C8166	-	RT-K103N Y181C	>0.05 µM
CCCCCCCCCC[C@@]1(O)C[N+](C)(C)C[C@@H](CC(=O)[O-])O1	RF	virus yield	-	-	-	~320 µg/mL
Nc1ccccc1C(=O)N1CCN(C(=O)C(=O)c2c[nH]c3cccc(F)c23)CC1	-	luciferase	HeLa + HELA CD4+/CCR5	-	-	<10 µM
Cc1ccc(C)c(C(C)S(=O)(=O)c2c(C)ccc[n+]2[O-])c1	-	cytopathic effect	CEM	-	RT-K103N	12 µg/mL
CCCCCCCCCc1ccc(OCCOCCOCCOCCOCCOCCOCCOCCOCCO)cc1	RF	virus yield	-	-	-	~32 µg/mL
Cc1cccc(C(=O)NC(C)(C)CNCC[C@@]23CC[C@]4(C)[C@H](CC[C@@H]5[C@@]6(C)CC[C@H](OC(=O)[C@H]7C[C@@H](C(=O)O)C7(C)C)C(C)(C)[C@@H]6CC[C@]54C)C2=C(C(C)C)C(=O)C3)n1	92HT599	p24 / ELISA	MT-2	-	-	<1 µM
Cc1ccc(C)c(CS(=O)c2ccc(Cl)c[n+]2[O-])c1	MN	cytopathic effect	CEM	-	-	7.6 µg/mL

A second listing of 5 rows from above:

SMILES	strain or isolate	read by	cell line	conditions	changes	value
O=C(C(=O)N1CCN(C(=O)c2ccccn2)CC1)c1c[nH]c2c(F)ccc(F)c12	-	luciferase	HeLa + HELA CD4+/CCR5	-	-	<10 µM
CCCCCCCCCC[C@@]1(O)C[N+](C)(C)C[C@@H](CC(=O)[O-])O1	RF	virus yield	-	-	-	~320 µg/mL
CCN1c2ncc(CCOc3ccc(-c4ccc(C(=O)O)c(Cl)c4)cc3C)cc2C(=O)N(C)c2cccnc21	-	p24	C8166	-	RT-K103N Y181C	>0.05 µM
COc1cc2ccnc(CN(CCCCN)Cc3ncccc3C)c2cc1OC	-	entry / luminescence	U87.CD4.CXCR4	-	-	0.013 µM
Cc1ccc(-c2ccc(NC(=O)N3CCC4(CCO4)CC3)cc2)cc1	25710	luminescence	TZM-bl	pseudotyped	-	>30 µM

ECn: concentration that inhibits the pathogen or its effect by n%. An empty or dashed field is not shown. Rows are shuffled and stem from different studies.